The values that follow come from paper PMC10213629.

Construct, isoform or probe ends are uncertain for at least one entry. No signal at the amounts used counts as a negative.

The series has as its system CrcA (PA1677) + Hfq. Briefly: grating-coupled interferometry. As to conditions: preformed Hfq/amiE6ARN (1:1) complex as analyte on immobilized CrcA, no binding of the complex to CrcA; GCI (Creoptix WAVEdelta, 4PCP chip): 10 mM Tris/HCl pH 8, 10 mM KCl, 40 mM NaCl, 1 mM MgCl2, 25 C; recombinant protein; protein details: His-tag removed by 3C cleavage.

For the sequence AAAAAUAACAACAAGAGG [amiE6ARN], the binding result was “no binding”.
